Entries after “also recorded” stand apart in the source; their conditions may differ.
Tests used:
Assay type in all cases: cell-based
[1] = Cytotoxicity Test I: virus-uninfected MT-4 cells, MTT method; details: virus-uninfected MT-4 cells, MTT method; read-out: CC50 (Test I), 50% survival concentration
Protocol: (§1) HIV-1 (IIIB) strain obtained from MOLT/HIV-1 (IIIB) cell previously infected by HIV-1 was used. The polypeptide of the present invention was added to MT-4 CD4^+ T cells infected by HIV in various kinds of concentrations, and a number of living cells after culturing at 37° C. for 5 days was determined by using a 3′-(4,5-dimethylthiazol-2-yl)-2,5-diphenyltetrazolinium bromide (MTT) method. Anti-HIV activity is shown by a concentration (EC50 value), where MT-4 cell death by HIV infection is inhibited by 50%. Cytotoxicity of the peptide according to the present invention was shown by a 50% survival concentration (Test I: CC50 value) by culturing virus-uninfected MT-4 cells with the polypeptide according to the present invention in various concentrations, and determining a number of living cells by the MTT method. Moreover, a number of living cells of human peripheral blood mononuclear cells (monocyte) (PBMC) was determined by trypan blue dyeing method, and shown by a 50% survival concentration (Test II: CC50 value). Respective ratios of the CC50 value and the EC50 value were shown as a selective index (SI). Obtained values were summarized in Table 3 using the conventionally known polypeptides T134 and T140, and an anti-HIV compound: 3′-azido-2′,3′-dideoxythymidine (AZT) used as a medicine as a control anti-HIV agent.

[2] = tested on: virus-uninfected MT-4 cells; test: as above
Protocol: as §1

[3] = tested on: HIV-1 (IIIB) strain; test: Anti-HIV activity: inhibition of MT-4 cell death by HIV infection (MTT method)
Protocol: as §1

N=C(N)NCCC[C@H](NC(=O)[C@@H]1CSSC[C@H](NC(=O)[C@H](Cc2ccc3ccccc3c2)NC(=O)[C@H](CCCNC(=N)N)NC(=O)[C@@H](N)CCCNC(=N)N)C(=O)N[C@@H](Cc2ccc(O)cc2)C(=O)N[C@@H](CCCNC(=N)N)C(=O)N[C@@H](CCCCN)C(=O)N[C@H](CCCNC(N)=O)C(=O)N2CCC[C@H]2C(=O)N[C@@H](Cc2ccc(O)cc2)C(=O)N[C@@H](CCCNC(N)=O)C(=O)N[C@@H](CCCNC(N)=O)C(=O)N1)C(N)=O [TC14020]
CC50 [1]: > 100000 nM
cytotoxicity in words, compared with conventional T134/T140 ([2]; conclusion drawn from Table 3): cytotoxicity is markedly lowered
SI: CC50 (Test I)/EC50 ([2]; selective index, MT-4 CC50 over anti-HIV EC50): >37000
EC50 ([3]; MT-4 CD4+ T cells infected by HIV-1 (IIIB), 37° C., 5 days, MTT, average of at least three measurements, read-out: EC50 (concentration where MT-4 cell death by HIV infection is inhibited by 50%)): 2.7 nM
anti-HIV activity in words, compared with T140 ([3]; conclusion drawn from Table 3): substantially the same anti-HIV activity as that of the conventionally known T140; also recorded: higher anti-HIV activity
